Results of unrelated studies side by side (data: NIAID ChemDB).

Common to all: growth or infection tests; species: HIV-1

Fold resistance: result on the changed form divided by that on wild type.

compound	strain or isolate	mutations	cell line	method	measure	value
O=C1Nc2ccc(Cl)cc2[C@@](C#CC2CC2)(C(F)(F)F)N1	-	RT-K103N Y181C	-	-	fold resistance	13.2
Cc1cc(C#N)cc(C(=O)c2cc(Cl)ccc2OCC(=O)Nc2ccc(OCCCN3CC=CC3)cc2C)c1	HXB2	RT-G190A	HeLa + HELA CD4+	β-galactosidase	fold resistance	~1
CCC(=O)c1ccc(F)c([C@@H]2C[C@@H]2NC(=O)Nc2ccc(C#N)cn2)c1O	LAI	NNRTI-resistant (RT M230L)	TZM-bl	β-galactosidase / luminescence	fold resistance	22.6
COc1ccc(S(=O)(=O)N(CC(C)C)C[C@@H](O)CCN(CC2CCCC2)S(=O)(=O)c2ccccn2)cc1	IIIB	-	CEM	p24	EC90	1 µM
Cc1cc(S(N)(=O)=O)ccc1NC(=O)COc1ccc(Cl)cc1C(=O)c1cc(Cl)cc(C#N)c1	HXB2 (RT-K103N Y181C) Recombinant	RT-K103N Y181C	HeLa + HELA CD4+	β-galactosidase	fold resistance	~1
O=C(c1ccccc1)N(CCc1ccccc1)C[C@H](O)CN(CC1CCCC1)S(=O)(=O)C1CS(=O)(=O)CC1O	IIIB	-	CEM	p24	EC90	1 µM
O=C1Nc2ccc(F)c(F)c2[C@@](/C=C/C2CC2)(C(F)(F)F)N1	-	RT-K103N P225H	-	-	EC90	~0.19 µM
Cc1cc(S(N)(=O)=O)ccc1NC(=O)COc1ccc(Cl)cc1C(=O)c1cccc(C#N)n1	HXB2	RT-K103N V108I	HeLa + HELA CD4+	β-galactosidase	fold resistance	~1
CN1CCn2c(nc(C(=O)NCc3ccc(F)cc3)c(O)c2=O)C(N(C)C(=O)C(=O)N2CCCC2)C1	-	-	MT-4	p24	EC95	<1 µM
CCc1cc(C#N)cc(C(=O)c2cc(Cl)ccc2OCC(=O)Nc2ccc(S(N)(=O)=O)cc2C)c1	HXB2	RT-Y181C	HeLa + HELA CD4+	β-galactosidase	fold resistance	~1
CC1(C)c2nc(C(=O)NCc3ccc(F)cc3)c(O)c(=O)n2CCN1Cc1ccccc1	-	-	MT-4	p24	EC95	<1 µM
O=C(c1ccccc1)N(CCc1ccccc1)C[C@H](O)CN(CC1CCCC1)S(=O)(=O)c1nc2ccccc2o1	IIIB	-	CEM	p24	EC90	1 µM
Cc1ccc(C)n1-c1ccc(C(=O)O)c(O)c1	93IN101 R5 CLADE C	-	PBMC + MT-2	p24	EC90	10.94 µM
COc1ccc(S(=O)(=O)N(CC(C)C)C(=O)C(=O)C(=O)[C@@H](Cc2ccccc2)NC(=O)O[C@H]2CCOC2)cc1	IIIB	-	CEM	p24	EC90	1 µM
CN(C)CC1c2nc(C(=O)NCc3ccc(F)cc3)c(O)c(=O)n2CCN1C(=O)C(=O)N(C)C	-	-	MT-4	p24	EC95	<50 µM
Cc1cc(S(N)(=O)=O)ccc1NC(=O)COc1ccc(Cl)cc1C(=O)c1cc(F)cc(C#N)c1	HXB2 (RT-K103N Y181C) Recombinant	RT-K103N Y181C	HeLa + HELA CD4+	β-galactosidase	fold resistance	~1
CC(C)=CCOc1cc(NC(=S)c2ccoc2C)ccc1Cl	NL4-3	RT-V108I	CEM + CEM-SS	p24	fold resistance	1.67
COc1ccnc2[nH]cc(C(=O)C(=O)N3C4CCCC3CN(C(=O)c3ccccc3)C4)c12	ZM214	-	TZM-bl	luciferase	EC99	89 µM
CC(C)=CCOc1cc(NC(=S)c2ccoc2C)ccc1Cl	UC82-R (RT-Y181C)	RT-Y181C	CEM + CEM-SS	cytopathic effect / XTT	fold resistance	122
Cc1cc2cn[nH]c2cc1NC(=O)COc1ccc(Cl)cc1C(=O)c1cccc(C#N)c1	HXB2	RT-V106I	HeLa + HELA CD4+	β-galactosidase	fold resistance	~1
COc1ccnc2[nH]cc(C(=O)C(=O)N3C4CC3CN(C(=O)c3ccccc3)C4)c12	QH0692	-	TZM-bl	luciferase	EC99	>>250 µM
CC(C)CN(CC(O)CN1CSC[C@H]1C(=O)NC(C)(C)C)S(=O)(=O)c1ccccc1	IIIB	-	CEM	p24	EC90	1 µM
CC(C)[C@H](NC(=O)OCc1ccccn1)C(=O)N[C@@H](Cc1ccccc1)[C@@H](O)C[C@H](Cc1ccccc1)NC(=O)OCc1cccnc1	NL4-3	PR-M46I V82T I84V	MT-4	p24	EC95	3 µM
O=C(O[C@H]1CCOC1)N(CCc1ccccc1)C[C@H](O)CN(CC1CCCC1)S(=O)(=O)c1ccc(O)cc1	IIIB	-	CEM	p24	EC90	0.1 µM
CC(=O)N1CCn2c(nc(C(=O)NCc3ccc(F)cc3)c(O)c2=O)C1C	-	-	MT-4	p24	EC95	<50 µM
COc1ccc(S(=O)(=O)N(CC(C)C)C[C@@H](O)CCN(CC2CCCC2)S(=O)(=O)C2CCC(OC)OC2)cc1	IIIB	-	CEM	p24	EC90	1 µM
CC(C)=CCOc1cc(NC(=S)c2ccsc2C)ccc1Cl	NL4-3 (RT M184V)	RT-M184V	CEM + CEM-SS	cytopathic effect / XTT	fold resistance	1.67
O=C(c1ccccc1)N(CCc1ccccc1)C[C@H](O)CN(CC1CCCC1)S(=O)(=O)Cc1cnco1	IIIB	-	CEM	p24	EC90	1 µM
Cc1cc(S(N)(=O)=O)ccc1NC(=O)COc1ccc(Cl)cc1C(=O)c1cccc(C#N)c1	HXB2	RT-K103N	HeLa + HELA CD4+	β-galactosidase	fold resistance	~1
Cn1cc(CN2CCn3c(nc(C(=O)NCc4ccc(F)cc4)c(O)c3=O)C2(C)C)nn1	-	-	MT-4	p24	EC95	<1 µM
COc1ccc(S(=O)(=O)N(CC[C@H](O)CN2CCN(C(=O)OCc3ccccc3)C[C@H]2C(=O)NC(C)(C)C)CC(C)C)cc1	IIIB	-	CEM	p24	EC90	1 µM

For reference, 3 entries again:

compound | strain or isolate | mutations | cell line | method | measure | value
COc1ccnc2[nH]cc(C(=O)C(=O)N3C4CCCC3CN(C(=O)c3ccccc3)C4)c12 | ZM214 | - | TZM-bl | luciferase | EC99 | 89 µM
COc1ccc(S(=O)(=O)N(CC(C)C)C(=O)C(=O)C(=O)[C@@H](Cc2ccccc2)NC(=O)O[C@H]2CCOC2)cc1 | IIIB | - | CEM | p24 | EC90 | 1 µM
O=C1Nc2ccc(F)c(F)c2[C@@](/C=C/C2CC2)(C(F)(F)F)N1 | - | RT-K103N P225H | - | - | EC90 | ~0.19 µM

ECn is the concentration giving n% inhibition of infection, replication or growth. Lines come from different laboratories, so protocols vary. Blank or dashed fields: not listed here.